A short description of data set [1]: Tissue distribution assay in mice. To be noted: oral administration, LC-MS/MS. It counts as in vivo, ICR male mice.
A further data set has as its system Vero E6 cells. Put plainly: Cytotoxicity (CCK-8).
Data set [2] addresses T1, 2-E protein (Severe acute respiratory syndrome coronavirus 2, UniProt P0DTC4). Briefly: SPR binding assay. For orientation: In SPR one partner is held on a chip, and binding of the other changes the refractive index at the surface.
The test system of data set [3] is SARS-CoV-2. Briefly: In vivo antiviral efficacy in SARS-CoV-2-infected hACE-2 mice.
Data set [4] deals with 2-E-induced cell death in Vero E6 cells. Put plainly: Cell protection against 2-E-induced cell death (CCK-8). It counts as cell-based, African green monkey.
Data set [5] addresses T1, 2-E protein. Briefly: Planar lipid bilayer recording, inhibition of 2-E channel activity. Type of data set: biochemical, SARS-CoV-2. To be noted: read-out: IC50 Channel inhibition.
A short description of data set [6]: In vivo pharmacokinetics in mice. To be noted: C57BL/6 mice.
Another data set has as its system C57BL/6 mice. Put plainly: In vivo dose range toxicity study.
Data set [7] concerns SARS-CoV-2. Put plainly: Viral inhibition assay in Vero E6 cells (viral RNA copy by qRT-PCR). It counts as cell-based. For orientation: Quantitative PCR measures a nucleic acid by following its amplification.
[8] abbreviates: read-out: IC50 Cell protection, Vero E6 cell survival rate at 24 h post transfection.
[9] abbreviates: read-out: IC50 Anti-virus, 24 h post infection, viral RNA copy in cell supernatant by qRT-PCR.
Setting [10] is: read-out: IC50 Cell protection, Vero E6 cell survival rate at 24 h post transfection, tested form: HCl.
Where [11] appears, read: read-out: IC50 Anti-virus, 24 h post infection, viral RNA copy in cell supernatant by qRT-PCR, tested form: HCl.

Amino acid sequences for entries named in this document (tags omitted).
UniProt P0DTC4, whole entry: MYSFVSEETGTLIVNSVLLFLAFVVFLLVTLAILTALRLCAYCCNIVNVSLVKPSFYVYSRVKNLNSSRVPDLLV

Usually IC50 stands for the concentration needed to halve the response being measured. As a reminder, the Tmax is the time from dosing to the highest level. Broadly, the Cmax is the peak of the concentration-time curve.

Structures are written as SMILES. Where two headings read alike, the source gives them in different places.

`CCCCNC(=O)Oc1ccc2cc1Oc1ccc(cc1)CC1c3cc(c(OC)cc3CCN1C)Oc1c(OC)c(OC)cc3c1C(C2)N(C)CC3` (stereo not drawn): the “concentration in the lungs after treatment” value in data set [1] stood at 100000 ng/g. Moreover, the “cytotoxicity (in words)” value in the data set on Vero E6 cells is recorded as “negligible cytotoxicity”. Further, the “binding to 2-E channels” value on 2-E protein [2] is “validated”. In the data set on SARS-CoV-2 [3] (5 mg/kg), the “gross lung lesions at necropsy (interstitial pneumonia symptoms)” value is “could relieve these symptoms”; the “lung histopathology (H&E)” value was “only few observed eosins in the lungs and minor damage of mouse lung”. For the same molecule, the “survival at end of study” value in the data set with SARS-CoV-2 [3] (5 mg/kg 2 h prior to or 2 h after infection, 2 × 10^6 TCID50) is recorded as “all mice were alive”. Further, the “viral RNA in the lung vs control mice” value in the data set on SARS-CoV-2 [3] (5 mg/kg, both therapeutic or preventive administration, qRT-PCR) was “a trend toward decreased levels of viral RNA in the lung”. The edema of spleen entry in the data set on SARS-CoV-2 [3] (5 mg/kg, especially in therapeutic group) is reported as “significantly alleviated”. Also, in the data set with SARS-CoV-2 [3] (5 mg/kg, prophylactic or therapeutic), the “body, lung and spleen weight” value is listed as “no obvious changes were observed”. Moreover, the “mRNA levels of inflammatory cytokines and chemokines in the left lung” value in the data set on SARS-CoV-2 [3] (5 mg/kg, qRT-PCR) is “significantly lower levels of inflammatory cytokines and partial chemokines than infected mice”. Besides, the “IL-6, IL-1RA and IL-1β in the left lung” value with SARS-CoV-2 [3] (5 mg/kg, therapeutic and preventive groups) is reported as “decreased”. For the same molecule, the IC50 in data set [4] (setting [8]) stood at 0.01 µM. Besides, the IC50 at 2-E protein [5] was found to be 5.79 µM. In data set [6] (2.5 mg/kg iv), this molecule had an AUCINF_obs of 1405 ± 393 ng·h/mL, an AUClast of 1324 ± 330 ng·h/mL, a CL of 31.10 ± 7.90 mL/min/kg and an MRTINF_obs of 7.53 ± 1.90 h. For the same molecule, in data set [6] (2.5 mg/kg iv), the T1/2 is 5.67 ± 1.09 h and the Vss_obs is 13.535 ± 1.699 L/kg. Further, the “F (bioavailability)” value in [6] (10 mg/kg po vs 2.5 mg/kg iv) was 51%. Also, in data set [6] (10 mg/kg po), the AUCINF_obs was found to be 2776 ± 806 ng·h/mL, the AUClast was found to be 2699 ± 791 ng·h/mL, the MRTINF_obs is listed as 6.67 ± 0.47 h and the T1/2 stood at 4.45 ± 0.67 h. Also, in data set [6] (10 mg/kg po), the Tmax is 0.25 ± 0.00 h. Also, the Cmax in data set [6] (10 mg/kg po, plasma) is 497 ± 80 ng/mL. Further, the toxicity observation result in the data set on C57BL/6 mice (5 mg/kg or 10 mg/kg group, once-daily tail vein injection, 5 days) was “No obvious toxicity was observed”. Moreover, the locomotor activity result in the data set with C57BL/6 mice (50 mg/kg administration group, repeat dose tail vein injection) is recorded as “a pronounced decrease in locomotor activity was observed”. Besides, the “body weight compared with the control group” value with C57BL/6 mice (up to 50 mg/kg, repeat dose tail vein injection) was “No significant changes in body weight were observed”. In the data set with SARS-CoV-2 [7] (setting [9]), the IC50 is 0.94 µM.
`COc1cc2c3cc1Oc1c(OC)c(OC)cc4c1[C@@H](Cc1ccc(CO)c(c1)Oc1ccc(cc1)C[C@@H]3N(C)CC2)N(C)CC4`: the figures for the IC50 (in data set [4] (setting [10]); at 2-E protein [5] (tested form: HCl); with SARS-CoV-2 [7] (setting [11])) were 4.9 µM, 12.4 µM and 1.12 µM, respectively.
For `COc1cc2c3cc1Oc1c(OC)c(OC)cc4c1[C@@H](Cc1ccc(C#N)c(c1)Oc1ccc(cc1)C[C@@H]3N(C)CC2)N(C)CC4` the same measures were 0.28 µM, 1.67 µM and 0.7 µM.
For `COc1cc2c3cc1Oc1c(OC)c(OC)cc4c1C(Cc1ccc(OC(=O)CCCCC5CCSS5)c(c1)Oc1ccc(cc1)CC3N(C)CC2)N(C)CC4` (stereo not drawn), the IC50 in data set [4] (setting [8]) is 0.04 µM; on 2-E protein [5] it was 12.9 µM; with SARS-CoV-2 [7] (setting [9]) it was 1.5 µM.

These data come from paper PMC8190750 (Cell Research, 2021).
